Test results taken from the supplement of paper PMC12637763.
Some of the results follow. Env chains of viruses from a treatment-interruption trial, translated from the printed DNA. IC50 / IC80 of two broadly neutralizing antibodies; lower = more sensitive virus; >50 µg/ml means not reached and <0.001 µg/ml is below the lowest dose. No active / inactive call.

How the values were obtained:
[1] = molecular target: antibody 10-1074; assay: neutralization IC50; higher = virus less sensitive to the antibody
Method: (§1)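 Pseudovirus bearing the Env chain mixed with antibody, from 50 µg/ml in fivefold dilutions, on TZM-bl reporter cells, in duplicate.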

[2] = molecular target: antibody 3BNC117; assay: as above
Method: as §1

[3] = molecular target: antibody 10-1074; assay: neutralization IC80; higher = virus less sensitive to the antibody
Method: as §1

[4] = molecular target: antibody 3BNC117; assay: as above
Method: as §1

Binder	neutralization IC50 [1]	neutralization IC50 [2]	neutralization IC80 [3]	neutralization IC80 [4]
HIV-1 Env, rebound clone, antibody arm (protein) MKVRGMKRNYQHLWGWGTMLLFWMIIMCKAAGNLWVTVYYGVPVWRDAETTLFCASDAKAYDKEVHNVWATHACVPTDPNPQEVRLENVTENFNMWENNMVEQMQTDIISLWDQSLKPCVKLTPLCVTLECTEPKLNSSTSNNSLSSTSNNSQYEEMKNCSFNMTTELRDKQKKVYSLFYKLDIVETDDNSSRYRLINCNTSTLTQACPKVTFKPIPIYYCAPAGFAILKCNDPQFNGTGPCTNVSTVQCTHGIKPVVSTQLLLNGSLAKEQVMIRSKNITDNSKTIIVQLKKPVNITCIRPGNNTRTSIRIGPGQAFYATGEITGDIRKAHCNVSRAEWNRTLQEISTQLQGYFNNKTIIFKNSSGGDLEVTTHSFNCGGEFFYCNTTKLFNSTWYGNETVINGTEASENITLQCRIKQIINMWQRVGQAMYAPPIRGEIRCESNITGLLLTRDGGGGNSSNNETFRPTGGDMRDNWRSELYKYKVVQVEPIGIAPTPAKRRVVEREKRAVGLGAAFLGFLGAAGSTMGAASLTLTVQARQLLSGIVQQQSNLLRAIEAQQHLLKLTVWGIKQLQARVLAVERYLRDQQLLGIWGCSGKLICTTAVPWNSSWSNKSYKDIWDNMTWMQWDKEVLNYTSIIYSLLEESQNQQEKNEQDLLALDKWASLWSWFDISKWLWYIKIFIMIVGGLIGLRIVFTVLSIINRVRQGYSPLSLQTLTPHPEEPDRPGRINEEGGEQDKGRSIRLVNGFLALAWDDLRSLCLFSYHRLRDFISIAARTVELLGRSSLKGLRLGWEGLKYLGNLLGYWSRELKNSAINLIDTIAIAVAGWTDRVIEIVQGSCRAIRNIPRRIRQGAEKALQ	0.187 µg/mL	0.085 µg/mL	0.876 µg/mL	0.284 µg/mL
HIV-1 Env, rebound clone, antibody arm (protein) MKVRGMKRNYQHLWGWGTMLLFWMIIMCKAAGNLWVTVYYGVPVWRDAETTLFCASDAKAYDKEVHNVWATHACVPTDPNPQEVRLENVTENFNMWENNMVEQMQTDIISLWDQSLKPCVKLTPLCVTLECTEPKLNSSTSNNSLSSTSNNSQYEEMKNCSFNMTTELRDKQKKVYSLFYKLDIVETDNNSSRYRLINCNTSTLTQACPKVTFEPIPIYYCAPAGFAILKCNDPQFNGTGPCTNVSTVQCTHGIKPVVSTQLLLNGSLAKEQVMIRSKNITDNSKTIIVQLKKPVNITCIRPGNNTRTSIRIGPGQAFYATGEITGDIRKAHCNVSRAEWNRTLQEISTQLQGYFNNKTIIFKNSSGGDLEVTTHSFNCGGEFFYCNTTKLFNSTWYGNETVINGTEASENITLQCRIKQIINMWQRVGQAMYAPPIRGEIRCESNITGLLLTRDGGGGNSSNKETFRPTGGNMRDNWRSELYKYKVVQVEPIGIAPTPAKRRVVEREKRAVGLGAAFLGFLGAAGSTMGAASLTLTVQARQLLSGIVQQQSNLLRAIEAQQHLLKLTVWGIKQLQARVLAVERYLRDQQLLGIWGCSGKLICTTAVPWNSSWSNKSYKDIWDNMTWMQWDKEVLNYTSIIYSLLEESQNQQEKNEQDLLALDKWASLWSWFDISKWLWYIKIFIMIVGGLIGLRIVFTVLSIINRVRQGYSPLSLQTLTPHPEEPDRPGRINEEGGEQDKGRSIRLVNGFLALAWDDLRSLCLFSYHRLRDFISIAARTVELLGRSSLKGLRLGWEGLKYLGNLLGYWSRELKNSAINLIDTIAIAVAGWTDRVIEIVQGSCRAIRNIPRRIRQGAEKALQ	0.074 µg/mL	0.025 µg/mL	0.476 µg/mL	0.067 µg/mL
HIV-1 Env, rebound clone, antibody arm (protein) MKVRGMKRNYQHLWGWGTMLLFWMIIMCKAAGNLWVTVYYGVPVWRDAETTLFCASDAKAYDKEVHNVWATHACVPTDPNPQEVRLENVTENFNMWENNMVEQMQTDIISLWDQSLKPCVKLTPLCVTLECTEPKLNSSTSNNSLSSTSNNSQYEEMKNCSFNMTTELRDKQKKVYSLFYKLDIVETDNNSSRYRLINCNTSTLTQACPKVTFEPIPIYYCAPAGFAILKCNDPQFNGTGPCTNVSTVQCTHGIKPVVSTQLLLNGSLAKEQVMIRSKNITDNSKTIIVQLKKPVNITCIRPGNNTRTSIRIGPGQAFYATGEITGDIRKAHCNVSRAEWNRTLQEISTQLQGYFNNKTIIFKNSSGGDLEVTTHSFNCGGEFFYCNTTKLFNSTWYGNETVINGTEASENITLQCRIKQIINMWQRVGQAMYAPPIRGEIRCESNITGLLLTRDGGGGNSSNNETFRPTGGDMRDNWRSELYKYKVVQVEPIGIAPTPAKRRVVEREKRAVGLGAAFLGFLGAAGSTMGAASLTLTVQARQLLSGIVQQQSNLLRAIEAQQHLLKLTVWGIKQLQARVLAVERYLRDQQLLGIWGCSGKLICTTAVPWNSSWSNKSYKDIWDNMTWMQWDKEVLNYTSIIYSLLEESQNQQEKNEQDLLALDKWASLWSWFDISKWLWYIKIFIMIVGGLIGLRIVFTVLSIINRVRQGYSPLSLQTLTPHPEEPDRPGRINEEGGEQDKGRSIRLVNGFLALAWDDLRSLCLFSYHRLRDFISIAARTVELLGRSSLKGLRLGWEGLKYLGNLLGYWSRELKNSAINLIDTIAIVVAGWTDRVIEIVQGSCRAIRNIPRRIRQGAEKALQ	0.095 µg/mL	0.04 µg/mL	0.672 µg/mL	0.106 µg/mL
